Data as given in PubChem BioAssay AID504761 (Drosophila RNAi Screening Center, 2011)

- Screen: 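Fly genes whose silencing reduces dengue virus type 2 infection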 (primary screen)
- Cells: D.Mel-2 cells from Drosophila
- Knock-down reagent: long dsRNA against Drosophila genes
- Conditions: infection with dengue virus type 2; dose and infection time not stated
- Detection: 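Cells stained for dengue envelope protein and imaged; percent of infected cells per well on duplicate plates, ranked by infection, with stained nuclei counted for cell number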
- Reading the numbers: infection score: higher = more virus-infected cells; cell count: higher = more cells in the well
- Hit rule: 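Very low infection ranking in both replicate wells (chance probability at most 0.065), then a retest showing infection dropped 1.5-fold or more at p below 0.05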
- Meaning of the calls: active = confirmed: knock-down lowers infection; inactive = not picked or not confirmed
The screen tested about 22,000 reagents; shown is a random part of those with a known target gene and a result. In the full data, 116 (0.52%) were called active. 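Calls depend on retest data that are not deposited; infection was ranked per plate without normalising between plates; the unit of the infection score is not given.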 Raw values vary from plate to plate and are shown uncorrected. Not all columns of the deposit are shown. Not given: the amount of reagent, the time to read-out.

With knock-down of Elba1 (Early boundary activity 1) [DRSC00276] the results were infection score, replicate 1 = 8.28; cell count, replicate 1 = 6231; inactive.
Against Elba1 (Early boundary activity 1) [DRSC24062], the values are infection score, replicate 1 = 1.95; cell count, replicate 1 = 6620; inactive.
Knock-down of CG6418 [DRSC10633] came out at: infection score, replicate 1 = 10.1; cell count, replicate 1 = 4571; inactive.
For CG6418 [DRSC27621] the deposit lists infection score, replicate 1 = 4.66; cell count, replicate 1 = 6735; inactive.
Depletion of fz2 (frizzled 2) [DRSC10087] resulted in: infection score, replicate 1 = 7.29; cell count, replicate 1 = 5141; inactive.
Depletion of fz2 (frizzled 2) [DRSC11349] came out at: infection score, replicate 1 = 5.68; cell count, replicate 1 = 6024; inactive.
Knock-down of GM130 (Golgi matrix protein 130 kD) [DRSC04617] gave: infection score, replicate 1 = 14.5; cell count, replicate 1 = 6287; inactive.
Silencing of CG44422 [DRSC18885] resulted in: infection score, replicate 1 = 8.21; cell count, replicate 1 = 6408; inactive.
For CG44422 [DRSC19380], the entry reads infection score, replicate 1 = 2.34; cell count, replicate 1 = 6506; inactive.
Silencing of CG44422 [DRSC23284] came out at: infection score, replicate 1 = 0.66; cell count, replicate 1 = 5607; inactive.

3 entries from above in another layout:
CG6418 [DRSC10633]
- infection score, replicate 1: 10.1
- cell count, replicate 1: 4571
- activity call: inactive

CG6418 [DRSC27621]
- infection score, replicate 1: 4.66
- cell count, replicate 1: 6735
- activity call: inactive

fz2 (frizzled 2) [DRSC10087]
- infection score, replicate 1: 7.29
- cell count, replicate 1: 5141
- activity call: inactive

The list goes on.
Oatp74D (Organic anion transporting polypeptide 74D) [DRSC09491] gave infection score, replicate 1 = 2.71; cell count, replicate 1 = 5723; inactive.
Against Oatp74D (Organic anion transporting polypeptide 74D) [DRSC10883], the entry reads infection score, replicate 1 = 11.6; cell count, replicate 1 = 4926; inactive.
Depletion of Qtzl (Quetzalcoatl) [DRSC01221] gave: infection score, replicate 1 = 7.15; cell count, replicate 1 = 6015; inactive.
Against Mur2B (Mucin related 2B) [DRSC18545], the values are infection score, replicate 1 = 13.2; cell count, replicate 1 = 6200; inactive.
Against Mur2B (Mucin related 2B) [DRSC18546], the entry reads infection score, replicate 1 = 8.63; cell count, replicate 1 = 6813; inactive.
Silencing of CG4270 [DRSC00648] gave: infection score, replicate 1 = 5.58; cell count, replicate 1 = 6419; inactive.
With knock-down of CG5381 [DRSC02852], the screen gave infection score, replicate 1 = 6.73; cell count, replicate 1 = 6316; inactive.
slv (saliva) [DRSC07685] gave infection score, replicate 1 = 3.57; cell count, replicate 1 = 6356; inactive.
Depletion of CG8089 [DRSC07074] came out at: infection score, replicate 1 = 11.2; cell count, replicate 1 = 5876; inactive.
Depletion of CG9581 [DRSC20695] came out at: infection score, replicate 1 = 8.23; cell count, replicate 1 = 6400; inactive.
After knock-down of CG9581 [DRSC22247], the record shows infection score, replicate 1 = 1.88; cell count, replicate 1 = 6373; inactive.
